Results of unrelated studies side by side (data: NIAID ChemDB).

All rows: growth or infection tests; organism: HIV-1

Conditions beyond the fields shown may differ between rows. Two numbers with a dash give a range or band. Blank or dashed fields: not listed here. ECn: concentration that inhibits the pathogen or its effect by n%.

SMILES	endpoint	method	strain or isolate	cells	changes	result
CCCc1cc(=O)oc2c3c(c4c(c12)OC(C)(C)CC4)O[C@@H](C)[C@H](C)[C@@H]3O	EC50	RT activity	CLADE D	PBMC	-	0.2 µM
Cc1nc(C2=CC3C(c4ccccc4N3C)N(c3ccc([N+](=O)[O-])cc3)C2=O)no1	EC50	cytopathic effect / MTT	LAI	MT-4	-	1–32 µM
Cc1cc(C#N)cc(C)c1Oc1nc(NC2CCN(Cc3ccc(S(C)(=O)=O)cc3)CC2)nc2sccc12	EC50	MTT	IIIB	MT-4	NNRTI-resistant (RT K103N)	0.00164 µM
COc1cnc(-n2cnc(C)n2)c2[nH]cc(C(=O)C(=O)N3CCC(=C(c4ccccc4)c4n[nH]c(=O)o4)CC3)c12	EC50	luciferase	-	HeLa	-	<1 µM
CCN1c2ncc(CCOc3ccc(CC(=O)O)c4c3CCCC4)cc2C(=O)N(C)c2ccc(Cl)nc21	EC50	p24	-	C8166	RT-K103N Y181C	<0.1 µM
CCN1c2ncc(CCOc3ccc(-c4ccc(C)nc4)cc3C)cc2C(=O)N(C)c2cccnc21	EC50	p24	-	C8166	RT-K103N Y181C	<0.01 µM
COc1ncc(OC)c2c(C(=O)C(=O)N3CCC(=C(c4ccccc4)c4nnc(C)o4)CC3)c[nH]c12	EC50	luciferase	-	HeLa	-	<1 µM
CCN1c2ncc(CCOc3ccc(C(=O)O)c4c3CCN(C(=O)OC)C4)cc2C(=O)N(C)c2cccnc21	EC50	p24	-	C8166	RT-V106A	0.1–1 µM
COc1ccc(S(=O)(=O)N(CC2CCCC2)C[C@@H](O)CN(CCc2ccc(O)cc2)C(=O)O[C@H]2CCOC2)cc1	EC50	p24	IIIB	CEM	-	<0.1 µM
COc1ccc(CNC[C@H](O)[C@@]23CC[C@]4(C)[C@H](CC[C@@H]5[C@@]6(C)CC[C@H](OC(=O)[C@H]7C[C@@H](C(=O)O)C7(C)C)C(C)(C)[C@@H]6CC[C@]54C)C2=C(C(C)C)C(=O)C3)cc1	EC50	p24 / ELISA	92HT599	MT-2	-	<1 µM
O=C1Nc2ccc(Cl)cc2[C@@](C#CC2CC2)(C(F)(F)F)N1	EC90	-	-	-	RT-K103N Y181C	~0.025 µM
CC(C)=CCOc1cc(NC(=S)c2ccsc2C)ccc1Cl	EC50	cytopathic effect / XTT	Diphenyl sulfone-resistant (RT-Y181C)	CEM + CEM-SS	RT-Y181C	0.2 µM
Cc1cc(/C=C/C#N)cc(C)c1Oc1nc(NC2CCN(Cc3ccccc3Br)CC2)nc2ccsc12	EC50	MTT	IIIB	MT-4	NNRTI-resistant (RT K103N)	0.0451 µM
O=C1c2c(O)c(=O)n(N3CCCCCC3)c(=O)n2CCN1Cc1ccc(F)cc1	EC50	p24	-	MT-4	-	<10 µM
Cc1cc(C#N)cc(C)c1Oc1nc(NC2CCN(Cc3ccc(S(N)(=O)=O)cc3)CC2F)nc2ccsc12	EC50	MTT	IIIB	MT-4	NNRTI-resistant (RT L100I)	0.00894 µM
CC(C)=CCOc1cc(NC(=S)c2ccoc2C)ccc1Cl	EC50	cytopathic effect / XTT	HEPT-resistant (RT P236L)	CEM + CEM-SS	RT-P236L	0.02 µM
CC1CC(C)CN(S(=O)(=O)c2ccccc2[N+](=O)[O-])C1	EC50	GFP / fluorescence	A-92UG029	HeLa	-	1 µM
Cc1occc1C(=S)Nc1ccc(Cl)c(SCC=C(Cl)Cl)c1	EC50	syncytia	TIBO R82913-resistant (RT K103N)	CEM	RT-K103N	0.08 µg/mL
COc1ccnc2[nH]cc(C(=O)C(=O)N3CCN(C(=O)c4ccccc4)C[C@H]3C)c12	EC90	luciferase	PVO	TZM-bl	-	0.22 µM
COc1ncc(OC)c2c(C(=O)C(=O)N3CCC(=C(c4ccccc4)c4nnco4)CC3)c[nH]c12	EC50	luciferase	-	HeLa	-	<1 µM
O=C1c2c(O)c(=O)n(C34CC5CC(CC(C5)C3)C4)c(=O)n2CCN1Cc1ccc(F)cc1	EC50	p24	-	MT-4	-	<10 µM
N#CC1=CC2Nc3ccccc3C2N(c2cccc([N+](=O)[O-])c2)C1=O	EC50	cytopathic effect / MTT	LAI	MT-4	-	1–32 µM
CC(C)c1c(Cc2ccccc2)n(COCc2ccccc2)c(=O)[nH]c1=O	EC50	p24 / ELISA	SF33	MT-4	-	0.016 µM
CC1(C)CC=C(c2cn(-c3nccc(C(=O)NC4CCC(N5CC6CCC(C5)O6)CC4)n3)c3ccc(F)c([C@H](OC(C)(C)C)C(=O)O)c23)CC1	EC50	luminescence	NL4-3	MT-4	T124A/T125A	0.0048 µM
CC(C)C1=C2[C@H]3CC[C@@H]4[C@@]5(C)CC[C@H](OC(=O)[C@H]6C[C@@H](C(=O)O)C6(C)C)C(C)(C)[C@@H]5CC[C@@]4(C)[C@]3(C)CC[C@@]2([C@@H](O)CNC(=O)c2ccc(Cl)cc2OCCN2CCS(=O)(=O)CC2)CC1=O	EC50	p24 / ELISA	92HT599	MT-2	-	<1 µM
C=CCOC(=O)N(CCc1ccccc1)C[C@H](O)CN(CC1CCCC1)S(=O)(=O)c1ccc(OC)cc1	EC50	p24	IIIB	CEM	-	<0.1 µM
COc1ncc(OC)c2c(C(=O)C(=O)N3CCC(=C(c4ccccc4)S(C)(=O)=O)CC3)c[nH]c12	EC50	luciferase	-	HeLa	-	1–5 µM
CCN1c2ncc(CCOc3ccc(C(=O)c4ccc(C(=O)O)cc4)cc3C)cc2C(=O)N(C)c2cccnc21	EC50	p24	IIIB	C8166	-	<0.01 µM
CCN1c2ncc(CCOc3ccc(CC(=O)O)c4ccccc34)cc2C(=O)N(C)c2cccnc21	EC50	p24	WT	C8166	-	<0.1 µM
O=C1Nc2ccc(F)c(F)c2[C@@](C#CC2CC2)(C(F)(F)F)N1	EC90	-	-	-	RT-V106A	<0.012 µM
CC(=O)N1CCCC(n2c(=O)c(O)c3n(c2=O)CCN(Cc2ccc(F)cc2)C3=O)C1	EC95	p24	-	MT-4	-	<10 µM
CC(C)C1=C2[C@H]3CC[C@@H]4[C@@]5(C)CC[C@H](OC(=O)[C@H]6C[C@@H](C(=O)O)C6(C)C)C(C)(C)[C@@H]5CC[C@@]4(C)[C@]3(C)CC[C@@]2(CCNCC(C)(CCCN)NC(=O)c2ccc(Cl)cc2)CC1=O	EC50	p24 / ELISA	92HT599	MT-2	-	<1 µM
N#CC(=C1CCN(C(=O)C(=O)c2c[nH]c3c(NC(=O)Nc4cc(C(=O)O)cc(C(=O)O)c4)cccc23)CC1)c1ccccc1	EC50	luciferase / reporter gene	-	HeLa	-	<1 µM
C/C(Cl)=C/COc1cc(NC(=S)c2ccoc2C)ccc1Cl	EC50	syncytia	Pyridone-resistant (RT Y181C)	CEM	RT-Y181C	0.043 µg/mL
COc1ccc(S(=O)(=O)N(CC(C)C)C[C@@H](O)CCN(CCc2ccccc2)C(=O)O[C@H]2COC3OCCC32)cc1	EC90	p24	IIIB	CEM	-	1 µM
CN1c2ccccc2C2C1C=C(C#N)C(=O)N2c1ccc([N+](=O)[O-])cc1	EC50	GFP / fluorescence	52543-2	HeLa	-	0.07 µM
COc1ncc(OC)c2c(C(=O)C(=O)N3CCC(=Cc4nc(-c5ccccc5)cs4)CC3)c[nH]c12	EC50	luciferase	-	HeLa	-	>5 µM
Cc1cc(/C=C/C#N)cc(C)c1Oc1nc(NC2CCN(Cc3cccc(F)c3)CC2)nc2ccsc12	EC50	MTT	IIIB	MT-4	NNRTI-resistant (RT L100I)	0.022 µM
CC1(C)CC(n2c(=O)c(O)c3n(c2=O)CCN(Cc2ccc(F)cc2)C3=O)CCO1	EC50	p24	-	MT-4	-	<10 µM
Cc1cc(C#N)cc(C)c1Oc1nc(NC2CCC(NCc3ccccc3)CC2)nc2ccsc12	EC50	MTT	IIIB	MT-4	NNRTI-resistant (RT K103N)	0.754 µM
CN1c2ccccc2C2C1C=CC(=O)N2c1ccc(-c2noc(C(F)(F)F)n2)cc1	EC50	cytopathic effect / MTT	LAI	MT-4	-	>32 µM
COc1ccc(NC(=S)C2=C(C)OCCS2)cc1OCC=C(Cl)Cl	EC50	syncytia	TSAO-m3T-resistant (RT E138K)	CEM	RT-E138K	3.5 µg/mL
COc1ccc(S(=O)(=O)N(CC(C)C)C[C@@H](O)CCN(CC2CCCC2)S(=O)(=O)c2cc(C(C)(C)C)cc3[nH]cnc23)cc1	EC90	p24	IIIB	CEM	-	1 µM
Nc1nc(NC2CC2)c2ncn([C@H]3C=C[C@@H](CO)C3)c2n1	EC50	p24	XM-ABC-resistant	PBMC	RT-K65R L74V M184V Y115F	<87 µM
Cc1cc(/C=C/C#N)cc(C)c1Oc1nc(NC2CCN(Cc3ccncc3)CC2)nc2ccsc12	EC50	MTT	IIIB	MT-4	NNRTI-resistant (RT Y181C)	0.00579 µM
CCN1c2ncc(CCOc3ccc(CCC(=O)O)c4ccccc34)cc2C(=O)N(C)c2ccc(F)nc21	EC50	p24	WT	C8166	-	<0.1 µM
CC(C)C1=C2[C@H]3CC[C@@H]4[C@@]5(C)CC[C@H](OC(=O)[C@H]6C[C@@H](C(=O)O)C6(C)C)C(C)(C)[C@@H]5CC[C@@]4(C)[C@]3(C)CC[C@@]2([C@@H](O)CNC[C@H](NC(=O)c2ccc(Cl)cc2)C(C)O)CC1=O	EC50	p24 / ELISA	92HT599	MT-2	-	<1 µM
COc1ccnc2[nH]cc(C(=O)C(=O)N3C4CCCC3CN(C(=O)c3ccccc3)C4)c12	EC50	luciferase	SF162	TZM-bl	-	0.39 µM
CC(C)C1=C2[C@H]3CC[C@@H]4[C@@]5(C)CC[C@H](OC(=O)[C@H]6C[C@@H](C(=O)O)C6(C)C)C(C)(C)[C@@H]5CC[C@@]4(C)[C@]3(C)CC[C@@]2(CC(=O)NCC(C)(C)NC(=O)CN2CCOCC2)CC1=O	EC50	p24 / ELISA	92HT599	MT-2	-	<1 µM
Cc1occc1C(=O)Nc1ccc(Cl)c(SCC=C(Cl)Cl)c1	EC50	syncytia	TSAO-m3T-resistant (RT E138K)	CEM	RT-E138K	0.68 µg/mL
Cc1nc2ccccc2c(-c2cc(F)c3c(c2C)CCCO3)c1[C@H](OC(C)(C)C)C(=O)O	EC50	luminescence	NL4-3	MT-4	E170G	0.068 µM
O=C1C(c2nn[nH]n2)=CC2Nc3ccccc3C2N1c1ccc([N+](=O)[O-])cc1	EC50	cytopathic effect / MTT	LAI	MT-4	-	1–32 µM
COP(=O)(c1cc(C)cc(CCC#N)c1)c1c(C(N)=O)[nH]c2ccc(Cl)cc12	EC50	cytopathic effect	IIIB	MT-4	-	0.0005 µM
N#CC1=CC2Nc3ccccc3C2N(c2ccc(F)c([N+](=O)[O-])c2)C1=O	EC50	cytopathic effect / MTT	LAI	MT-4	-	1–32 µM
C[C@@H]1CN(C(=O)c2ccccc2)CCN1C(=O)C(=O)c1c[nH]c2c(NS(C)(=O)=O)cccc12	EC50	luciferase / reporter gene	-	HeLa	-	<1 µM
N#CC(=C1CCN(C(=O)C(=O)c2c[nH]c3c(-n4ccc(N)n4)ncc(F)c23)CC1)c1ccccc1	EC50	luciferase	-	HeLa	-	<1 µM
CCN1c2ncc(CCOc3ccc(-c4cccc(CC(=O)O)c4)cc3)cc2C(=O)N(C)c2cccnc21	EC50	p24	-	C8166	RT-K103N Y181C	0.01–0.05 µM
Nc1nc(=O)n([C@H]2C=C[C@@H](CO)O2)cc1F	EC90	p24	NL-XM WT	PBMC	-	1.7 µM
N#Cc1cc2[nH]c3ccccc3c2n(-c2ccc([N+](=O)[O-])cc2)c1=O	EC50	cytopathic effect / MTT	C	MT-4	RT-L100I K103N	2.51 µM
CNCCN1CCN(c2cccc3c(C(=O)C(=O)N4CCN(C(=O)c5ccccc5)C[C@H]4C)c[nH]c23)C1=O	EC50	luciferase / reporter gene	-	HeLa	-	<1 µM
COc1ccc(S(=O)(=O)N(CC2CCCC2)C[C@@H](O)CN(CCCc2ccccc2)C(=O)O[C@H]2CCOC2)cc1	EC90	p24	IIIB	CEM	-	0.1 µM
C[C@@H]1CN(C(=O)c2ccccc2)CCN1C(=O)C(=O)c1c[nH]c2c(NC(=O)NCCCCNC(=O)Nc3ccc(B(O)O)cc3)cccc12	EC50	luciferase / reporter gene	-	HeLa	-	<1 µM
Cc1cncc(CN(CCN(C)C)CC[C@@]23CC[C@]4(C)[C@H](CC[C@@H]5[C@@]6(C)CC[C@H](OC(=O)[C@H]7C[C@@H](C(=O)O)C7(C)C)C(C)(C)[C@@H]6CC[C@]54C)C2=C(C(C)C)C(=O)C3)n1	EC50	p24 / ELISA	92HT599	MT-2	-	<1 µM
CCN1c2ncc(CCOc3ccc(-c4cccc(C(=O)O)c4)cc3C)cc2C(=O)N(C)c2cccnc21	EC50	p24	-	C8166	RT-K103N Y181C	0.01–0.05 µM
CC(C)=CCOc1cc(NC(=S)c2ccsc2C)ccc1Cl	EC50	p24	NL4-3	CEM + CEM-SS	RT-A98G	0.009 µM
Cc1occc1C(=S)Nc1ccc(Cl)c(OCC=C(Cl)Cl)c1	EC50	syncytia	Pyridone-resistant (RT Y181C)	CEM	RT-Y181C	0.16 µg/mL
Cc1csc(-c2ccc(N3C(=O)C=CC4C3c3ccccc3N4C)cc2)n1	EC50	cytopathic effect / MTT	LAI	MT-4	-	>32 µM
COc1cnc(-n2cnc(C)n2)c2[nH]cc(C(=O)C(=O)N3CCC(=C(c4ccccc4)c4nnc(C)o4)CC3)c12	EC50	luciferase	-	HeLa	-	<1 µM
CC(C)CN(CC(O)CCc1ccccc1C(=O)NC(C)(C)C)S(=O)(=O)c1ccccc1	EC90	p24	IIIB	CEM	-	1 µM

6 of the rows above, restated:

SMILES | endpoint | method | strain or isolate | cells | changes | result
N#CC(=C1CCN(C(=O)C(=O)c2c[nH]c3c(-n4ccc(N)n4)ncc(F)c23)CC1)c1ccccc1 | EC50 | luciferase | - | HeLa | - | <1 µM
CC1(C)CC(n2c(=O)c(O)c3n(c2=O)CCN(Cc2ccc(F)cc2)C3=O)CCO1 | EC50 | p24 | - | MT-4 | - | <10 µM
Cc1cc(C#N)cc(C)c1Oc1nc(NC2CCC(NCc3ccccc3)CC2)nc2ccsc12 | EC50 | MTT | IIIB | MT-4 | NNRTI-resistant (RT K103N) | 0.754 µM
CCN1c2ncc(CCOc3ccc(C(=O)O)c4c3CCN(C(=O)OC)C4)cc2C(=O)N(C)c2cccnc21 | EC50 | p24 | - | C8166 | RT-V106A | 0.1–1 µM
CC(C)CN(CC(O)CCc1ccccc1C(=O)NC(C)(C)C)S(=O)(=O)c1ccccc1 | EC90 | p24 | IIIB | CEM | - | 1 µM
N#Cc1cc2[nH]c3ccccc3c2n(-c2ccc([N+](=O)[O-])cc2)c1=O | EC50 | cytopathic effect / MTT | C | MT-4 | RT-L100I K103N | 2.51 µM